According to US20110311550A1:

Target: E1E2 complex (H77) with E2 mutation L441A (HCV genotype 1a, isolate H77) (UniProt P27958)
Assay: ELISA, lectin-captured E1E2 lysate, Ab 1 ug/ml

MAb AR3A (antibody)
Binding relative to wt (%): 9%
